# Measurements taken from patent publication US20200147037A1, “NEW TREATMENT OF BRAIN CANCER” (priority 2017, published 2020).
# Values joined by “and” are separate entries in the source; they are usually repeats but may differ in a detail not shown here. Equal entries are not always repeated.
# Experiments:
# DLD-1 = assay: Cell viability IC50 assay; conditions: read-out: PLTX IC50 at 72 h; DLD-1, Colorectal carcinoma
# BT 20 = assay: Cell viability IC50 assay; conditions: read-out: PLTX IC50 at 72 h; BT 20, Breast cancer
# PC-3 = assay: Cell viability IC50 assay; conditions: read-out: PLTX IC50 at 72 h; PC-3, Prostate cancer
# Karpas-299 = assay: Cell viability IC50 assay; conditions: read-out: PLTX IC50 at 72 h; Karpas-299, Lymphoma
# U-87 MG = assay: Cell viability IC50 assay; conditions: read-out: PLTX IC50 at 72 h, Glioblastoma
# H1299 = assay: Cell viability IC50 assay; conditions: read-out: PLTX IC50 at 72 h; H1299, Metastatic Lung NSCLC
# BXPC3 = assay: Cell viability IC50 assay; conditions: read-out: PLTX IC50 at 72 h; BXPC3, Pancreatic cancer
# HCT-116 = assay: Cell viability IC50 assay; conditions: read-out: PLTX IC50 at 72 h; HCT-116, Metastatic colon carcinoma
# A 549 = assay: Cell viability IC50 assay; conditions: read-out: PLTX IC50 at 72 h; A 549, Lung cancer
# chicken embryos = assay: In vivo toxicity of palytoxin on chicken embryos
# [1] = system: A549 highly metastatic human lung tumor; assay: Chicken embryo CAM assay, secondary brain cancer, versus paclitaxel
# [2] = system: glioblastoma patient tumors, grown as explants; assay: Explants of human glioblastoma biopsies; conditions: 1 pM for 3 days; D3/D0
# [3] = system: human glioblastoma U-87 MG cells; assay: Mouse model of human glioblastoma grafted in nude mouse brain
# [4] = Tolerance of PLTX in glioblastoma-bearing mice (clinical signs, CD45, blood, organs)
compound,measurement,setting,value
C=C(/C=C/CC(O)C(O)C(O)C/C=C/C=C/C(O)CC1OC(CC(O)C(O)CC2OC(C(O)C(O)CCC(O)/C=C/C(C)C(O)CC3(O)OC(CC(O)CCCCCCCC45CC(C)CC(C)(O4)C(CC(C)CCCCCC(O)C(O)C(O)C(O)C(O)C4OC(CC(O)C(O)/C(C)=C/C(O)CC(C)C(O)C(=O)N/C=C/C(=O)NCCCO)C(O)C(O)C4O)O5)C(O)C(O)C3O)CC(O)C2O)C(O)C(O)C1O)CCC(O)C(O)C(O)C(C)CC1OC(/C=C/C(O)C(O)CC2CC3CC(O2)C(CCC2OC(CN)CC2O)O3)C(O)C(O)C1O (stereo not drawn),IC50,DLD-1,1 to 10 pM
same,IC50,BT 20,1 to 10 pM
same,IC50,PC-3,1 to 10 pM
same,IC50,Karpas-299,1 to 10 pM
same,IC50,U-87 MG,1 to 10 pM
same,IC50,H1299,1 to 10 pM
same,IC50,BXPC3,1 to 10 pM
same,IC50,HCT-116,1 to 10 pM
same,IC50,A 549,1 to 10 pM
same,abnormalities among the 22 endpoints in the embryos and the CAM,chicken embryos; 2 nM,no abnormalities
same,abnormalities in the embryos,chicken embryos; 20 nM,no abnormalities
same,alteration of the CAM at the treatment site,chicken embryos; 20 nM,observed in all eggs
same,Body abnormalities among live embryos,chicken embryos; PLTX 2 nM,0/17
same,Extra-emb abnormalities among live embryos,chicken embryos; PLTX 2 nM,0/17
same,Head abnormalities among live embryos,chicken embryos; PLTX 2 nM,0/17
same,Limbs abnormalities among live embryos,chicken embryos; PLTX 2 nM,0/17
same,Body abnormalities among live embryos,chicken embryos; PLTX 20 nM,0/13
same,Extra-emb abnormalities among live embryos,chicken embryos; PLTX 20 nM,13/13
same,Head abnormalities among live embryos,chicken embryos; PLTX 20 nM,0/13
same,Limbs abnormalities among live embryos,chicken embryos; PLTX 20 nM,0/13
same,Body abnormalities among live embryos,chicken embryos; PLTX 200 nM,0/1
same,Extra-emb abnormalities among live embryos,chicken embryos; PLTX 200 nM,1/1
same,Head abnormalities among live embryos,chicken embryos; PLTX 200 nM,0/1
same,Limbs abnormalities among live embryos,chicken embryos; PLTX 200 nM,0/1
same,Tumor weight,[1]; PLTX 1nM,19.346 ± 1.143 mg
same,reduction of brain metastases amount compared to controls,[1]; PLTX 1nM,78%
same,more efficient than paclitaxel on brain metastases amount,[1]; PLTX 1 nM versus paclitaxel 25 μM,43%
same,"Metastasis relative amount, in embryo brain","[1]; PLTX 1 nM, relative to DMSO",0.222 ± 0.056
same,"Metastasis relative amount, in low CAM","[1]; PLTX 1 nM, relative to DMSO",0.059 ± 0.043
same,reduction of explant core size compared to control,[2],14%
same,reduction of migration front compared to control,[2],about 60%
same,% of animals with tumor formation,[3]; PLTX Intraperitoneal 25 ng/kg,25%
same,Animals with tumor formation,[3]; PLTX Intraperitoneal 25 ng/kg,1 out of 4 and 1/4
same,% of animals with tumor formation,[3]; PLTX intracerebral 0.5 ng,80%
same,Animals with tumor formation,[3]; PLTX intracerebral 0.5 ng,4 out of 5 and 4/5
same,"apoptosis, caspase-3 positive cells in tumors",[3]; PLTX intracerebral group,2.5±0.96%
same,"differentiation, GFAP positive cells in tumors",[3]; PLTX intracerebral group,no GFAP Positive cells
same,"proliferation, ki67 positive cells in tumors",[3]; PLTX intracerebral group,52.5±2.5%
same,time to tumor development on average,[3]; PLTX intracerebral group,44 days
same,"proliferation rate, Ki67 positive cells in tumors",[3]; PLTX intraperitoneal group,17.5±7.5%
same,mice showing absolutely no clinical signs at the time of euthanasia,"[4]; PLTX IP group, Day 57 post injection",3 out of 4
same,tolerance of injection into the peritoneum,[4]; PLTX Intraperitoneal 25 ng/kg,well tolerated
same,CD45 immunostaining in the brain parenchyma around the tumor (inflammation),[4]; PLTX intracerebral group,No staining
same,CD45 immunostaining in the brain parenchyma around the tumor (inflammation),[4]; PLTX intraperitoneal group,No staining
same,"effect on mice blood formulation (red blood cell count, hemoglobin, hematocrit, reticulocyte, platelet and white blood cell counts)",[4]; PLTX intraperitoneal injection,did not alter
